Experimental data from article PMC4162614.
No signal at the amounts used counts as a negative. Tags and fusion partners may be left off the protein sequences shown. For at least one entry, the source does not settle the construct or the ends of the probe. Weaker means in comparison with the reference protein, sequence or condition of that experiment.

Target: T1, Rex (Bacillus cereus ATCC 14579) (UniProt Q81IS6)
T1 sequence (looked up): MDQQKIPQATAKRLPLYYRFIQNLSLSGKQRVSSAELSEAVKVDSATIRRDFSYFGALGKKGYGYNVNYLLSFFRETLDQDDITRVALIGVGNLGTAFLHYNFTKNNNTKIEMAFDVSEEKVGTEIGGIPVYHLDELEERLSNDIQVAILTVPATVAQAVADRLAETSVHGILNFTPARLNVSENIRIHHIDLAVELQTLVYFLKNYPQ
Test: EMSA
Details: 10 mM Tris-HCl pH 7.5, 50 mM KCl, 2.5% glycerol, 5 mM MgCl2, 5 mg/L poly(dI-dC), 30 min at 37 C, 6% native PAGE, recombinant protein, probe letters rebuilt from the primers and the genome

Row | Sequence | binding result (increasing Rex, 2 nM DNA, residues 1-209, label: 5' biotin (forward strand)) | binding result (10 mM NADH (binding impaired), 0.6 uM Rex, 2 nM DNA, residues 1-209, label: 5' biotin (forward strand)) | binding result (100 mM NAD+ (no interference), 0.6 uM Rex, 2 nM DNA, residues 1-209, label: 5' biotin (forward strand)) | binding result (NAD+/NADH ratio of 5 (incomplete shift), 0.6 uM Rex, 2 nM DNA, residues 1-209, label: 5' biotin (forward strand)) | binding result (no NADH/NAD+ added, complete shift of 2 nM DNA at 0.6 uM Rex, residues 1-209, label: 5' biotin (forward strand))
1 | CAAGAATCGTTTCTGCACCGTATAATTTCGAAAGCGCGTTTACTTGTAATAAAATCAATGTTTTCACCTCAAATAATTTCTTAACTTTGCCATGTTTATATTTCTCAATCATACTAAAAATAGTGTATAGTTTAAAATAAAGAGAGAATACTTCTTCTCTTTATTATACAAGGAATTTAATGAGTGCTAAACTTCTGTATTTGATTAAAGTATATGAATAAAGATAGGAAGAGAGGAGAGGTCATATGGATCAGCAAAAGATTCCACAAGCCACTGCTAAAAGATTGCCTCTATACTATCGATTTATCCAAAACTTATCTCTTTCTGGTAAGC (double strand) [rex promoter region] | no binding |  |  |  | 
2 | GGATCCAACTAATCCAGTACCGATAATTGCAATTTTTCTTGTATGTCTTTTCATAGCAATCTCTCCTAATTGATCATATAATCTATTTCTTTTGTTCTTTACATTCTTAATTATAGAGGTTCCCACGATAGAAACCATGGATACTTTGCGAAATGTTGAACAAAGTTTTTGTCCTTTTTGTGAATTGTCATATTCCATTTTCGTCATATTTGTTACAACTGGAAAAATATTTATTATGTATTTATTGACATATACAAAAAGAAAACGAGCGAATAAATTCGCTCGTTTTCTTTTTCCTGTTATTCCGCACTTAATTGGCTTTTTAATTGCTGTACAATCATCGGATTAGCAGGT (double strand) [ldhA promoter region] |  | binds more weakly | binds | binds more weakly | binds
